Results taken from paper PMC11988556, “Combined Cytotoxic Effects of the Fungicide Azoxystrobin and Common Food-Contaminating Mycotoxins” (Foods, 2025).

Tests used:
HepG2 cells [1] = test: resazurin reduction cytotoxicity assay, with CI-isobologram analysis of mixtures; assay type: cell-based, human
HepG2 cells [2] = test: MTT cytotoxicity assay, with CI-isobologram analysis of mixtures; assay type: cell-based, human

Row | Compound | m (Hill coefficient of the dose-effect curve) (HepG2 cells [1]; resazurin method, HepG2, 24 h) | m (Hill coefficient of the dose-effect curve) (HepG2 cells [2]; MTT method, HepG2, 24 h) | m (Hill coefficient of the dose-effect curve) (HepG2 cells [1]) | m (Hill coefficient of the dose-effect curve) (HepG2 cells [2])
1 | CO/C=C(/C(=O)OC)c1ccccc1Oc1cc(Oc2ccccc2C#N)ncn1 [AZX, azoxystrobin] | 0.99 | 0.81 |  | 
2 | CC1=C[C@H]2O[C@@H]3[C@H](O)C[C@](C)([C@@]2(CO)[C@H](O)C1=O)[C@]31CO1 [DON, deoxynivalenol] | 0.90 | 0.69 |  | 
3 | C[C@@H]1Cc2c(Cl)cc(C(=O)N[C@@H](Cc3ccccc3)C(=O)O)c(O)c2C(=O)O1 [OTA, ochratoxin A] | 1.03 | 1.26 |  | 
4 | CC(=O)OC[C@]12C[C@H](OC(=O)CC(C)C)C(C)=C[C@H]1O[C@@H]1[C@H](O)[C@@H](OC(C)=O)[C@@]2(C)[C@]12CO2 [T2, T-2 toxin] |  |  | 0.91 | 0.94
